Compound potency records, mixed from different reports. Data source: NIAID ChemDB in PubChem.

All rows: tests on isolated targets; species: HIV-1; target: Reverse transcriptase; measure: IC50

An empty or dashed field is not shown. a–b is a range or a potency band. Conditions beyond the fields shown may differ between rows. ICn: concentration for n% inhibition.

| compound | strain or isolate | changes | method | value |
|---|---|---|---|---|
| Nc1ncnc2c1ncn2[C@H]1CC[C@@H](COP(=O)(O)OP(=O)(O)OP(=O)(O)O)O1 | - | - | nucleotide incorporation / radiometric | 0.023 µg/mL |
| CC1(C)Oc2ccc3ccc(=O)oc3c2[C@H](OC(=O)C23CCC(C)(C(=O)O2)C3(C)C)[C@@H]1OC(=O)C12CCC(C)(C(=O)O1)C2(C)C | IIIB | - | - | >100 µg/mL |
| CCC(=O)Nc1c(Sc2cc(C)cc(C)c2)c(C)c[nH]c1=O | - | - | nucleotide incorporation | >40 µM |
| COc1ccc(CC(=O)Nc2nc(-c3ccccc3)cs2)cc1 | - | - | RT activity / absorbance | 7.35 µM |
| COc1ccc(-c2nc3sc4c(c3c(=O)o2)CCCCC4)cc1 | - | - | nucleotide incorporation / fluorescence | >100 µM |
| CCN1c2ncc(CCOc3ccc(-c4cccc[n+]4[O-])cc3C)cc2C(=O)N(C)c2cccnc21 | IIIB | RT-K103N Y181C | nucleotide incorporation / radiometric | <0.05 µM |
| C#CCOc1ccc2c(c1OC(C)=O)C(=O)c1ccccc1C2=O | - | - | - | >100 µM |
| COc1cc([C@H]2c3c(cc(OC)c(OC)c3OC)C[C@H]3CSC[C@@H]32)cc(OC)c1OC | - | - | nucleotide incorporation | 3.6 µM |
| N/C(=N\O)c1ncn(C2CCCC2)c1N | - | - | - | 0.5 µM |
| Nc1ncnc2c1ncn2[C@@H]1O[C@H](COP(=O)([O-])O)[C@@H](O)[C@H]1OP(=O)([O-])OC[C@H]1O[C@@H](n2cnc3c(N)ncnc32)[C@H](OP(=O)([O-])OC[C@@H]2C[C@@H](O)[C@H](n3cnc4c(N)ncnc43)O2)[C@@H]1O | IIIB | - | - | >10 µM |
| O=c1oc(-c2cccc(O)c2)nc2sc3c(c12)CCCCC3 | - | - | nucleotide incorporation / fluorescence | 54.2 µM |
| CCN1c2ncc(CCOc3ccc(C(=O)NNC)cc3C)cc2C(=O)N(C)c2cccnc21 | IIIB | RT-K103N Y181C | nucleotide incorporation / radiometric | <0.05 µM |
| CCCC#CC1(C(F)(F)F)OC(=O)Nc2ccc([N+](=O)[O-])cc21 | - | - | - | 0.276 µM |
| N#CC1C=Cc2ccccc2N1C(=O)c1ccc(Cl)cc1 | - | - | nucleotide incorporation | <50 µM |
| Cc1cccc(C(C)c2c(C(C)C)c(=O)[nH]c(=O)n2COCc2ccccc2)c1 | - | - | RT activity / fluorescence | 0.55 µM |
| NC(=O)c1c(NC(=O)c2ccc(O)c(O)c2)sc2c1CCCCC2 | - | - | nucleotide incorporation / fluorescence | >100 µM |
| CCN1c2ncc(CCOc3ccc(C(=O)Nc4cccnc4C)cc3C)cc2C(=O)N(C)c2cccnc21 | IIIB | - | nucleotide incorporation / radiometric | <0.05 µM |
| NC(=O)c1c(NC(=O)c2ccccc2O)sc2c1CCCCC2 | - | - | nucleotide incorporation / fluorescence | >100 µM |
| CC(=O)Oc1c(OC(C)C(C)=O)ccc2c1C(=O)c1ccccc1C2=O | - | - | - | 61 µM |
| COc1cc([C@H]2c3c(cc4c(c3OC)OCO4)C[C@H]3COC(=O)[C@@H]32)cc(C)c1OC | - | - | nucleotide incorporation | 122 µM |
| CC(=O)O[C@@H]1[C@H](OC(=O)CC(C)C)c2c(ccc3ccc(=O)oc23)OC1(C)C | IIIB | - | - | >100 µg/mL |
| CCN1c2ncc(CCOc3ccc(-c4cc(CC(=O)O)ccc4OC)cc3C)cc2C(=O)N(C)c2cccnc21 | IIIB | RT-K103N Y181C | nucleotide incorporation / radiometric | 0.05–0.1 µM |
| Nc1nc2c(ncn2[C@@H]2C=C[C@H](OCP(=O)(O)OP(=O)(O)C(F)(F)P(=O)(O)O)C2)c(=O)[nH]1 | - | - | - | 5.8 µM |
| CC(=O)Oc1c(OCC(=O)c2ccccc2)ccc2c1C(=O)c1ccccc1C2=O | - | K103N | - | 35 µM |
| CCCc1cc(=O)oc2c3c(c4c(c12)OC(C)(C)C=C4)O[C@H](C)C[C@@H]3O | - | RT-G138A | nucleotide incorporation / radiometric | 5.97 µM |
| CCCC#CC1(C(F)(F)F)OC(=O)Nc2cccc(F)c21 | - | - | - | 0.127 µM |
| N[C@@H](Cc1ccc(OS(=O)(=O)[O-])cc1)C(=O)O.[Na+] | IIIB | - | nucleotide incorporation / radiometric | 36 µg/mL |
| Cc1cn([C@H]2CC[C@@H](COP(=O)(O)OP(=O)(O)OP(=O)(O)O)[C@@H]2F)c(=O)[nH]c1=O | - | - | - | 200 µg/mL |
| COc1ccccc1CC(=O)Nc1nc(-c2ccccc2)cs1 | - | - | RT activity / absorbance | 18.8 µM |
| CC(=O)COc1ccc2c(c1OCC(C)=O)C(=O)c1ccccc1C2=O | - | K103N | - | 64 µM |
| CCc1c(C)[nH]c(=O)c(N)c1Sc1cc(C)cc(C)c1 | - | - | nucleotide incorporation | 0.195 µM |
| O=c1oc(-c2ccc(O)c(O)c2)nc2sc3c(c12)CCCCC3 | - | - | nucleotide incorporation / fluorescence | 9.1 µM |
| CC(C)=CCN1Cc2cccc3[nH]c(=S)n(c23)C[C@@H]1C | - | - | scintillation proximity | 5 µM |
| Nc1ncnc2c1ncn2[C@@H]1O[C@H](COP(=O)([O-])O[C@@H]2C[C@@H](COP(=O)([O-])O[C@@H]3C[C@@H](COP(=O)([O-])O)O[C@H]3n3cnc4c(N)ncnc43)O[C@H]2n2cnc3c(N)ncnc32)[C@@H](O)[C@H]1O | IIIB | - | - | >10 µM |
| CC(=O)Oc1c(OCC(=O)c2ccc(-c3ccccc3)cc2)ccc2c1C(=O)c1ccccc1C2=O | - | Y181C | - | >100 µM |
| Nc1ncnc2c1ncn2C1OC(COP(=O)(O)OC2CC(COP(=O)(O)OC3CC(CO)OC3n3cnc4c(N)ncnc43)OC2n2cnc3c(N)ncnc32)CC1O | IIIB | - | - | >10 µM |
| O=C(/C=C/c1ccc(O)c2c1[C@H](C(=O)O[C@H](Cc1ccc(O)c(O)c1)C(=O)O)[C@@H](c1ccc(O)c(O)c1)O2)O[C@H](Cc1ccc(O)c(O)c1)C(=O)O | - | - | nucleotide incorporation | 68 µM |
| Cc1cccc(Sc2c(C)c[nH]c(=O)c2N)c1 | - | - | nucleotide incorporation | >40 µM |
| Nc1ncnc2c1ncn2C1OC(COP(=O)(O)OC2C(O)C(COP(=O)(O)OC3CC(CO)OC3n3cnc4c(N)ncnc43)OC2n2cnc3c(N)ncnc32)CC1O | IIIB | - | - | >10 µM |
| COc1ccnc2[nH]cc(C(=O)C(=O)N3CCN(C(=O)c4ccccc4)C[C@H]3C)c12 | - | - | - | >100 µM |
| Cc1nc2c3c(sc2c(=O)o1)CCCCC3 | - | - | nucleotide incorporation / fluorescence | 22.6 µM |

The first 3 rows once more:

{"compound": "Nc1ncnc2c1ncn2[C@H]1CC[C@@H](COP(=O)(O)OP(=O)(O)OP(=O)(O)O)O1", "method": "nucleotide incorporation / radiometric", "value": "0.023 µg/mL"}
{"compound": "CC1(C)Oc2ccc3ccc(=O)oc3c2[C@H](OC(=O)C23CCC(C)(C(=O)O2)C3(C)C)[C@@H]1OC(=O)C12CCC(C)(C(=O)O1)C2(C)C", "strain or isolate": "IIIB", "value": ">100 µg/mL"}
{"compound": "CCC(=O)Nc1c(Sc2cc(C)cc(C)c2)c(C)c[nH]c1=O", "method": "nucleotide incorporation", "value": ">40 µM"}